The assay deals with GST-tagged MERS-CoV papain-like protease (PLpro) (MERS-CoV) (UniProt K9N7C7). Briefly: BLI. On the technique in general: BLI is a label-free optical method that tracks binding on a fibre tip over time.

Sequences of proteins named here, by UniProt entry; tags and fusion partners are left off. Residues count along the entry.
UniProt K9N7C7, 1480-1803: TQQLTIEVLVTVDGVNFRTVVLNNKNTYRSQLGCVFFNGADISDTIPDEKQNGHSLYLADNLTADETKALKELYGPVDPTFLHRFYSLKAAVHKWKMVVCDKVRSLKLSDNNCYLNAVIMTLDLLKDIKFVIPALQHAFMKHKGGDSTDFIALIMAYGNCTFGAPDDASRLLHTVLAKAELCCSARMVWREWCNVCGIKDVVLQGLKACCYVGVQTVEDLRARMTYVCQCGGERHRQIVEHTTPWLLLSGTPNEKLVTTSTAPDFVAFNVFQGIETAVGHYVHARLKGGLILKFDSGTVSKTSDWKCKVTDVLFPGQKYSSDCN

With “wild-type ubiquitin (from UniProt P0CG48 1-76) (natural protein; other documents disagree on this pair)”, the Kd (in general, a measure of binding affinity in units of concentration) is 40.8 µM.

The record behind these values is publication PMC10274944.
